Measured values from several laboratories, pooled; numbers as filed in NIAID ChemDB.

MIC50, MIC90 and the like: level of inhibition, or share of isolates inhibited. ICn is the concentration giving n% inhibition. Percent inhibition refers to the dose given; in toxicity tests it is the harm to the cells. ECn: concentration that inhibits the pathogen or its effect by n%. Rows are shuffled and stem from different studies. Blank or dashed fields: not listed here.

Nc1c(S(=O)(=O)[O-])cc2cc(S(=O)(=O)[O-])ccc2c1O ; read by: cytopathic effect ; species: Rhinovirus ; measure: inhibition ; kind: culture ; cell line: Human amnion AV3 cells ; dose: 50 µg/mL ; value: 0%
Fc1ccc(-c2cncc(N3CCN(c4ccncc4)CC3)n2)cc1 ; target: UL97 kinase ; species: Cytomegalovirus ; measure: IC50 ; kind: target ; value: <10 µM
CCC(CC)[C@H](NC(C)=O)[C@@H]1[C@H](O)[C@@H](C(=O)O)C[C@H]1N=C(N)N ; species: Influenza A virus ; measure: EC50 ; kind: culture ; cell line: MDCK ; strain or isolate: Influenza A/Shandong/09/93 (H3N2) ; value: 0.17 µM
COc1cc(-c2ccc(N=Nc3ccc4c(S(=O)(=O)O)cc(S(=O)(=O)O)c(N)c4c3O)c(OC)c2)ccc1N=Nc1ccc2c(S(=O)(=O)O)cc(S(=O)(=O)O)c(N)c2c1O ; read by: cytopathic effect ; species: Adenovirus ; measure: inhibition ; kind: culture ; cell line: Human amnion AV3 cells ; dose: 50 µg/mL ; strain or isolate: TYPE 3 ; value: 0%
COc1ccc(N2CCN(c3cncc(-c4cccc5ccccc45)n3)CC2)cc1OC ; target: UL97 kinase ; species: Cytomegalovirus ; measure: inhibition ; kind: target ; dose: 10 µM ; value: >15%
C=CCc1ccc(OC)c(OC)c1 ; read by: turbidity ; species: Candida tropicalis ; measure: MIC90 ; kind: culture ; strain or isolate: 3220 ; value: 340 µg/mL
Fc1ccc(-c2cncc(N3CCN(c4ccccn4)CC3)n2)cc1 ; target: UL97 kinase ; species: Cytomegalovirus ; measure: IC50 ; kind: target ; value: <10 µM
O=S(=O)([O-])c1cc(S(=O)(=O)[O-])c2cc(NS(=O)(=O)c3ccccc3)ccc2c1 ; read by: cytopathic effect ; species: Adenovirus ; measure: inhibition ; kind: culture ; cell line: Human amnion AV3 cells ; dose: 50 µg/mL ; strain or isolate: TYPE 3 ; value: 0%
CCOC(=O)/C=C/[C@H](C[C@@H]1CCNC1=O)NC(=O)[C@@H](CC(=O)[C@@H](NC(=O)c1cc(C)on1)C(C)C)Cc1ccc(F)cc1 ; read by: cytopathic effect / visual reading ; species: Rhinovirus ; measure: EC50 ; kind: culture ; cell line: OHIO HELA-I ; strain or isolate: Isolate 2 ; value: 0.01 µg/mL
CCO/N=C/c1ccc(OCCC2CCN(c3ccc(Cl)nn3)CC2)cc1 ; read by: neutral red ; species: Rhinovirus ; measure: EC50 ; kind: culture ; cell line: KB ; strain or isolate: FO2-2317 (ICAM-1 receptor group 68) ; value: 0.059 µM
Nc1cccc(S(=O)(=O)O)c1 ; read by: cytopathic effect ; species: Herpes simplex virus ; measure: inhibition ; kind: culture ; cell line: Human amnion AV3 cells ; dose: 10 µg/mL ; value: 17%
COc1cccc(N2CCN(c3cncc(-c4ccc(CO)cc4)n3)CC2)c1 ; target: UL97 kinase ; species: Cytomegalovirus ; measure: IC50 ; kind: target ; value: <10 µM
Nc1ccc2cc(S(=O)(=O)O)cc(S(=O)(=O)O)c2c1 ; read by: cytopathic effect ; species: Herpes simplex virus ; measure: inhibition ; kind: culture ; cell line: Human conjunctiva cells ; dose: 10 µg/mL ; value: 0%
Fc1ccc(N2CCCCC2)c(NC(=S)c2ccncc2)c1 ; target: Lck ; read by: kinase activity ; measure: inhibition ; kind: host protein ; dose: 10 µM ; value: 18%
N#Cc1ccc(-c2cncc(N3CCN(c4ccccn4)CC3)n2)cc1 ; target: UL97 kinase ; species: Cytomegalovirus ; measure: inhibition ; kind: target ; dose: 1 µM ; value: <50%

The first 2 rows once more:

| structure | target | read by | species | measure | kind | cell line | dose | strain or isolate | value |
|---|---|---|---|---|---|---|---|---|---|
| Nc1c(S(=O)(=O)[O-])cc2cc(S(=O)(=O)[O-])ccc2c1O |  | cytopathic effect | Rhinovirus | inhibition | culture | Human amnion AV3 cells | 50 µg/mL |  | 0% |
| Fc1ccc(-c2cncc(N3CCN(c4ccncc4)CC3)n2)cc1 | UL97 kinase |  | Cytomegalovirus | IC50 | target |  |  |  | <10 µM |